Measurements as given in paper PMC2891834 (PLoS Pathogens, 2010).

Target: NleG5-1[[…]] (E. coli O157:H7 strain Sakai)
Experiment: fluorescence polarisation
Details: both partners purified

Binder | Kd [µM]
UBE2D2 R5A, labelled with fluorescein-5-maleimide (enzyme, labelled with fluorescein-5-maleimide (site not stated), also called UBE2D2 R5A variant; source: E. coli BL21-Gold (DE3), purified (Ni-NTA), then labelled) not shown | 326 ± 35
UBE2D2 F62A, labelled with fluorescein-5-maleimide (enzyme, labelled with fluorescein-5-maleimide (site not stated), also called UBE2D2 F62A variant; source: E. coli BL21-Gold (DE3), purified (Ni-NTA), then labelled) not shown | 36 ± 2
UBE2D2 K63A, labelled with fluorescein-5-maleimide (enzyme, labelled with fluorescein-5-maleimide (site not stated), also called UBE2D2 K63A variant; source: E. coli BL21-Gold (DE3), purified (Ni-NTA), then labelled) not shown | 213 ± 9
